In patent US20250109186A1 (REGENTS OF THE UNIVERSITY OF MINNESOTA, published 2025):
“And” between values parts separate entries of the source, which are not always exact repeats. Identical values can stand only once.

B1: Nanosota-2A-Fc (Fc fusion)
chain: QVQLQESGGGAVQPGGSLGLSCTASGFNFETSTVGWFRQAPGKENEGVSCINKGYEDTNYADSVKGRFTISRDAAKNTVYLQMDSLQPEDTATYYCAAHNEPYFCDYSGRFRWNEYSYYGQGTQVTVSS[human IgG1 Fc omitted here]
B2: Nanosota-3A-Fc (Fc fusion)
chain: QVQLQESGGGLVQAGGSLRLSCAASGSIFSPNTMGWFRQALGKQREMVAVISSIASTQYANFVKGRFTITRDNTKNTVHLQMNSLIPEDTAVYYCYAVDKSQDYWGQGTQVTVSS[human IgG1 Fc omitted here]

Target: prototypic SARS-CoV-2 spike (Wuhan strain plus D614G), full length (SARS-CoV-2 (prototypic))
Assay: cell-based or functional assay

Binder | IC50, live virus plaque reduction neutralization on Vero E6 cells (WT) | IC50, pseudovirus entry into human ACE2-expressing HEK293T cells (WT) | IC50, pseudovirus entry (WT)
B1 | 0.16 ng/ml and 2 pM | 0.5 ng/ml and 6.2 pM | –
B2 | – | – | 74 pM and 5.7 ng/ml
